Compound potency records, mixed from different reports. Data source: NIAID ChemDB in PubChem.

Common to all: growth or infection tests; species: Plasmodium falciparum; measure: EC50

ECn is the concentration giving n% inhibition of infection, replication or growth.

structure	setting	strain	method	cell line	value
CCOC(=O)COc1cccc(-c2cc(Cl)cc(C3(C4CCC4)C(C#N)=C(N)Oc4n[nH]c(C)c43)c2)c1		NF54	radiometric		0.14 µM
O=C1C(=O)c2ccccc2C(O)=C1c1ccccc1		3D7	flow cytometry	Erythrocytes	0.44 µM
CCCCCCCCCCCC(=O)NC(CCCC[NH3+])C(=O)NC(CCCC[NH3+])C(=O)NCCCCCCCC(=O)NC(CCCC[NH3+])C(N)=O		NF54	hypoxanthine uptake		>10 µM
NCCSC[C@H](N)C(=O)N(O)C1C[C@@H](C(N)=O)N(C(=O)c2ccc(-c3cccc([N+](=O)[O-])c3)o2)C1	96 h	3D7	flow cytometry	Red blood cells	38.4 µM
CCCCCCCCCCCC(=O)NC(CCCC[NH3+])C(=O)NCCCCCCCC(=O)NC(CCCC[NH3+])C(=O)NCCCCCCCC(=O)NC(CCCC[NH3+])C(=O)NCCCCCCCC(=O)NC(CCCC[NH3+])C(N)=O		FCR3	hypoxanthine uptake		1.2 µM
N#Cc1nc2c(-c3nc4ccccc4[nH]3)c(N)n(CCCn3ccnc3)c2nc1C#N		NF54	hypoxanthine uptake / radiometric	Erythrocytes	0.3 µM
CCCCCCCCCCCC(=O)NC(CCCC[NH3+])C(=O)NC(CCCC[NH3+])C(=O)CCCCCC(=O)NCCCCCC(=O)NC(CCCC[NH3+])C(N)=O		NF54	hypoxanthine uptake		>10 µM
N#Cc1nc2c(-c3nc4ccccc4[nH]3)c(N)n(Cc3ccc4c(c3)OCO4)c2nc1C#N		NF54	hypoxanthine uptake / radiometric	Erythrocytes	0.32 µM
NCCCCCCCC(=O)NC(CCCC[NH3+])C(=O)NCCCCCCCC(=O)NC(CCCC[NH3+])C(=O)NCCCCCCCC(=O)NC(CCCC[NH3+])C(=O)NCCCCCCCC(=O)NC(CCCC[NH3+])C(=O)NCCCCCCCC(=O)NC(CCCC[NH3+])C(N)=O		FCR3	hypoxanthine uptake		73 µM
N#Cc1nc2c(-c3nc4ccccc4s3)c(N)n(CCCn3ccnc3)c2nc1C#N		NF54	hypoxanthine uptake / radiometric	Erythrocytes	0.59 µM
Cc1[nH]nc2c1C(c1cc(Br)cc(C#N)c1)(C(C)C)C(C#N)=C(N)O2		NF54	radiometric		0.65 µM
COc1cc(OC)c(OC)cc1/C=C/C(=O)c1ccc(Cl)cc1		INDO	SYBR Green / fluorescence		10 µM
CCN(CC)CCCNC(=O)c1ccc(-c2cc(C#N)cc(C3(C(C)C)C(C#N)=C(N)Oc4n[nH]c(C)c43)c2)s1		NF54	radiometric		1.16 µM
COc1ccc(/C=C/C(=O)c2ccc(Cl)cc2)c(OC)c1OC		3D7	SYBR Green / fluorescence		3.4 µM
N#Cc1nc2c(-c3nc4ccccc4[nH]3)c(N)n(CCc3ccccc3F)c2nc1C#N		NF54	hypoxanthine uptake / radiometric	Erythrocytes	0.41 µM
NC(=O)C(CCCC[NH3+])NC(=O)CCCCCCCCCCCNC(=O)C(N)CCCC[NH3+]		FCR3	hypoxanthine uptake		99 µM
Clc1ccc2c(NCCCCN3CCN(C(c4ccccc4)c4ccccc4)CC3)ccnc2c1		D6	SYBR Green / fluorescence		0.0013 µM
NC(=O)C(CCC[NH3+])NC(=O)CCCCCCCNC(=O)C(CCCC[NH3+])NC(=O)CCCCCCCNC(=O)C(CCCC[NH3+])NC(=O)CCCCCCCNC(=O)C(N)CCCC[NH3+]		FCR3	hypoxanthine uptake		130 µM
N#Cc1nc2c(-c3nc4ccccc4[nH]3)c(N)n(CCc3ccccc3Cl)c2nc1C#N		NF54	hypoxanthine uptake / radiometric	Erythrocytes	0.28 µM
COc1cc2nc(N3CCCN(C)CC3)nc(NC3CCN(Cc4ccccc4)CC3)c2cc1OC		3D7	fluorescence		0.075 µM
N#Cc1nc2c(-c3nc4ccccc4[nH]3)c(N)n(CCc3ccc(S(N)(=O)=O)cc3)c2nc1C#N		NF54	hypoxanthine uptake / radiometric	Erythrocytes	>100 µM
CC[C@H]1OC(=O)[C@H](C)[C@@H](OC2C[C@@](C)(OC)[C@@H](O)[C@H](C)O2)[C@H](C)[C@@H](OC2O[C@H](C)C[C@H](N(C)C)[C@H]2O)[C@](C)(OC2C[C@@H](N(C)C)[C@@H](O)[C@H](C)O2)C[C@@H](C)CN(C)[C@H](C)[C@@H](O)[C@]1(C)O	120 h	3D7	fluorescence	RBC	0.16 µM
O=C(/C=C/C=C/c1ccc2c(c1)OCO2)c1ccc(Cl)c(Cl)c1		INDO	SYBR Green / fluorescence		100 µM
NC(=O)C(CCCC[NH3+])NC(=O)CCCCCCCCCCCNC(=O)C(CCCC[NH3+])NC(=O)CCCCCCCCCCCNC(=O)C(N)CCCC[NH3+]		FCR3	hypoxanthine uptake		15 µM
NCCCC[C@H](N)C(=O)N(O)C1C[C@@H](C(N)=O)N(C(=O)c2ccccc2-c2ncc(-c3ccccc3)o2)C1	48 h	3D7	flow cytometry	Red blood cells	518 µM
O=C(/C=C/C=C/c1ccc2c(c1)OCO2)c1ccc(Cl)cc1		INDO	SYBR Green / fluorescence		64 µM
O=C1C=C(O)c2ccccc2C1=O		3D7	flow cytometry	Erythrocytes	89 µM
COc1ccc(/C=C/C=C/C(=O)c2ccc(OC)cc2)cc1		3D7	SYBR Green / fluorescence		22.5 µM
CC(C)CCn1c(N)c(-c2nc3ccccc3[nH]2)c2nc(C#N)c(C#N)nc21		NF54	hypoxanthine uptake / radiometric	Erythrocytes	0.25 µM
Cc1[nH]nc2c1C(c1cc(Cl)cc(C#N)c1)(C1CC=CC1)C(C#N)=C(N)O2		NF54	radiometric		0.27 µM
CCCCCCCC(=O)NC(CCCC[NH3+])C(=O)NCCCCCCCC(=O)NC(CCCC[NH3+])C(=O)NCCCCCCCC(=O)NC(CCCC[NH3+])C(=O)NCCCCCCCC(=O)NC(CCCC[NH3+])C(=O)NCCCCCCCC(=O)NC(CCCC[NH3+])C(N)=O		FCR3	hypoxanthine uptake		49 µM
Cc1[nH]nc2c1C(c1cc(Cl)cc(-c3ccc(C(=O)OCc4ccccc4)cc3)c1)(C1CCC1)C(C#N)=C(N)O2		NF54	radiometric		0.038 µM
CC[C@H]1OC(=O)[C@H](C)[C@@H](OC2C[C@@](C)(OC)[C@@H](O)[C@H](C)O2)[C@H](C)[C@@H](OC2O[C@H](C)C[C@H](N(C)C)[C@H]2O)[C@](C)(O)C[C@@H](C)CN(C)[C@H](C)[C@@H](O)[C@]1(C)O	48 h	W2 Mef	fluorescence	RBC	18.9 µM
Cc1[nH]nc2c1C(c1cc(C#N)cc(-c3ccc(C(=O)NCCCN4CCN(C)CC4)s3)c1)(C(C)C)C(C#N)=C(N)O2		NF54	radiometric		0.94 µM
CCN(CC)CCCC(C)Nc1ccnc2cc(Cl)ccc12		Dd2	LDH / absorbance		0.1018 µM
COC(=O)c1ccc(-c2cc(Cl)cc(C3(C4CCC4)C(C#N)=C(N)Oc4n[nH]c(C)c43)c2)cc1		NF54	radiometric		0.08 µM
O=C(/C=C/C=C/c1ccc2c(c1)OCO2)c1ccc(F)cc1		INDO	SYBR Green / fluorescence		29 µM
Cc1[nH]nc2c1C(c1cc(C#N)cc(C#N)c1)(C(C)C)C(C#N)=C(N)O2		NF54	radiometric		0.69 µM
COc1cc(OC)c(OC)cc1/C=C/C=C/C(=O)c1ccc2ccccc2c1		INDO	SYBR Green / fluorescence		31 µM

The last 3 rows once more:

O=C(/C=C/C=C/c1ccc2c(c1)OCO2)c1ccc(F)cc1 ; strain: INDO ; method: SYBR Green / fluorescence ; value: 29 µM
Cc1[nH]nc2c1C(c1cc(C#N)cc(C#N)c1)(C(C)C)C(C#N)=C(N)O2 ; strain: NF54 ; method: radiometric ; value: 0.69 µM
COc1cc(OC)c(OC)cc1/C=C/C=C/C(=O)c1ccc2ccccc2c1 ; strain: INDO ; method: SYBR Green / fluorescence ; value: 31 µM

An empty or dashed field is not shown. Neighbouring rows are from separate reports.